## Structure probing of HIV-1 leader RNA with DMS

Reference: Ye et al. 2022, doi:10.1038/s41594-022-00746-2.

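Mutant RNA libraries with 1G, 2G or 3G starts, with or without cap, were folded at 37 °C for 30 min. High salt was 300 mM KCl and 5 mM MgCl2, low salt 40 mM KCl and 0.1 mM MgCl2; monomer and dimer were parted on a native gel. Gel slices were treated with 170 mM dimethyl sulfate for 15 min at 37 °C and read by mutational profiling against an ethanol control.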

Sequence of the HIV-1 NL4-3 5' RNA, positions 1 to 437, as numbered in the source:
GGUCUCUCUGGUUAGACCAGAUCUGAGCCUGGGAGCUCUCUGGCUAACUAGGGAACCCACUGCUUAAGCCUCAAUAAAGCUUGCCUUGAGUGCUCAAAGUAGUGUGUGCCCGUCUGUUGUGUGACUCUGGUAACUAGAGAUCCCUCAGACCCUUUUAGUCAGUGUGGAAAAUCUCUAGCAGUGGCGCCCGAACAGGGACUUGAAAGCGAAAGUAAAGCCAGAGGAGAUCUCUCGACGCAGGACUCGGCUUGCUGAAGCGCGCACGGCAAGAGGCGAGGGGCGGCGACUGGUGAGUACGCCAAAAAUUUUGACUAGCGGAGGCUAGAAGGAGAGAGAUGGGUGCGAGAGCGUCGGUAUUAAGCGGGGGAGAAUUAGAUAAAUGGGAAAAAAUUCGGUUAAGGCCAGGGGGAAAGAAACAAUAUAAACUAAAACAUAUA

Scale: normalised reactivity, A and C only; low values point to paired or protected bases, higher values to unpaired ones.
One numbering serves 1G, 2G and 3G.
A position is written with its base.

position | domain | 1G uncapped low-salt dimer | 2G capped low-salt dimer | 3G uncapped high-salt monomer
C29 | TAR | 0.17 | 0.09 | 0.10
C36 | TAR | 0.11 | 0.03 | 0.03
C48 | TAR | 0.21 | 0.05 | 0.03
C72 | PolyA | 0.13 | 0.10 | 0.10
C84 | PolyA | 0.74 | 0.64 | 0.19
C111 | U5 | 0.15 | 0.23 | 0.30
A132 | PBS | 0.53 | 0.52 | 0.56
C134 | PBS | 0.14 | 0.17 | 0.16
C146 | PBS | 0.11 | 0.12 | 0.13
A149 | PBS | 0.07 | 0.08 | 0.07
A177 | PBS | 0.21 | 0.26 | 0.23
C187 | PBS | 0.04 | 0.03 | 0.03
C193 | PBS | 0.70 | 0.79 | 0.91
A204 | PBS | 0.73 | 0.70 | 0.71
C207 | PBS | 0.69 | 0.55 | 0.44
A210 | PBS | 0.51 | 0.46 | 0.55
A211 | PBS | 0.44 | 0.46 | 0.43
C219 | antiPAS | 0.03 | 0.06 | 0.03
C231 | CU | 0.09 | 0.12 | 0.20
C233 | CU | 0.17 | 0.17 | 0.33
A235 | none | 0.75 | 0.74 | 0.57
C236 | none | 0.42 | 0.43 | 0.44
A239 | none | 0.71 | 0.71 | 0.59
A242 | none | 1.11 | 1.04 | 0.76
C245 | SL1 | 0.08 | 0.07 | 0.36
C248 | SL1 | 0.03 | 0.03 | 0.06
C252 | SL1 | 0.06 | 0.06 | 0.30
A256 | SL1 | 1.03 | 1.03 | 0.73
C262 | SL1 | 0.23 | 0.25 | 0.31
A263 | SL1 | 0.78 | 0.81 | 0.20
A276 | SL1 | 0.46 | 0.40 | 1.14
A327 | none | 1.10 | 1.03 | 1.01
A330 | none | 0.82 | 0.82 | 0.93
A379 | none | 0.60 | 0.57 | 0.60
A380 | none | 0.83 | 0.79 | 0.81
A390 | none | 0.86 | 0.88 | 0.94
A412 | none | 0.51 | 0.48 | 0.52
A414 | none | 0.48 | 0.48 | 0.46
A424 | none | 0.37 | 0.35 | 0.34
A429 | none | 0.70 | 0.69 | 0.74
C432 | none | 0.90 | 0.87 | 0.89
A433 | none | 0.70 | 0.71 | 0.73
A435 | none | 0.48 | 0.48 | 0.50

The first 4 entries again:

C29 (domain TAR): 1G uncapped low-salt dimer 0.17; 2G capped low-salt dimer 0.09; 3G uncapped high-salt monomer 0.10.
C36 (domain TAR): 1G uncapped low-salt dimer 0.11; 2G capped low-salt dimer 0.03; 3G uncapped high-salt monomer 0.03.
C48 (domain TAR): 1G uncapped low-salt dimer 0.21; 2G capped low-salt dimer 0.05; 3G uncapped high-salt monomer 0.03.
C72 (domain PolyA): 1G uncapped low-salt dimer 0.13; 2G capped low-salt dimer 0.10; 3G uncapped high-salt monomer 0.10.